Biological target: T1, human NXF1(117-619)-NXT1 heterodimer, wild type (human, UniProt Q9UBU9 117-619; Q9UKK6 1-140)
T1 construct: human NXF1 (mRNA export receptor), residues 117-619; human NXT1, coexpressed with NXF1; also called NXF1-NXT1; mRNA export receptor; source: E. coli Rosetta, coexpressed, purified (details in SI Appendix)
T1 sequence (looked up) 1: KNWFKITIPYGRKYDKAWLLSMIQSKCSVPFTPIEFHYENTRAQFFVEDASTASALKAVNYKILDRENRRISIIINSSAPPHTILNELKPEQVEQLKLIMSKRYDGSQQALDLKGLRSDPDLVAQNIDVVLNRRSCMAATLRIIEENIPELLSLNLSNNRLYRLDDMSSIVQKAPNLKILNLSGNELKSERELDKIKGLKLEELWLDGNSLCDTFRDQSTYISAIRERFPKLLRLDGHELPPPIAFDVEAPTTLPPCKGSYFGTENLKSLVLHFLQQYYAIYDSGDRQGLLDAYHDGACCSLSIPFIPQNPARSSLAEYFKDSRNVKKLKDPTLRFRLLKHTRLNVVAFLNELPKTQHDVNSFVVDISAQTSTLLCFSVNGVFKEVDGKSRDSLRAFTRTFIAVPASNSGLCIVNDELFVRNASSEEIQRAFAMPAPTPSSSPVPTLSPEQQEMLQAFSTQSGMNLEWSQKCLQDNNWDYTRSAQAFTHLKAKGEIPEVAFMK
T1 sequence (looked up) 2: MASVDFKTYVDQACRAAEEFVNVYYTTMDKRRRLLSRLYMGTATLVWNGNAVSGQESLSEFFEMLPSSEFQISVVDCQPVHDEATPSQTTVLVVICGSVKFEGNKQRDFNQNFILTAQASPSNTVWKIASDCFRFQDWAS
Details: both partners purified

B1: GST-tagged SARS-CoV-2 Nsp1 R99A (natural protein)
chain: not shown
B1: binds.
